A mixed list of measured activities; the numbers were collected in NIAID ChemDB.

All rows: tests on isolated targets; species: Hepatitis C virus

ICn: concentration for n% inhibition.

{"SMILES": "CNC(=O)c1c(-c2ccc(F)cc2)oc2cc(-c3c(C4CC4)noc3COC)c(OC)cc12", "protein": "Nonstructural protein 5B", "measure": "IC50", "result": "≤0.5 µM"}
{"SMILES": "CO[C@H]1CCCCC1N(C(=O)c1ccc(Cl)cc1Cl)c1cc(-c2ccccc2)sc1C(=O)O", "protein": "NS3 ATPase", "measure": "IC50", "result": "<5 µM"}
{"SMILES": "O=C(O)C[C@H](NC(=O)c1cnn2c(C3CCCCC3)cc(-c3ccc(F)cc3F)nc12)c1ccccc1", "protein": "RNA-dependent RNA polymerase", "measure": "IC50", "result": "1–10 µM"}
{"SMILES": "O=C(O)c1nc(-c2ccccc2NC(=S)NCc2ccccc2)[nH]c(=O)c1O", "protein": "HCV polymerase", "measure": "IC50", "result": "<100 µM"}
{"SMILES": "Nc1cc(-c2ccccc2)sc1-c1ccc2cc(-c3nc4cc(C(=O)O)ccc4n3C3CCCCC3)ccc2n1", "protein": "NS5B polymerase", "measure": "inhibition", "dose": "33 µM", "result": "101%"}
{"SMILES": "c1ccc(Oc2ccc(-c3c(-c4ccccc4)cnc4c(-c5nn[nH]n5)cnn34)cc2)cc1", "protein": "RNA-dependent RNA polymerase", "measure": "IC50", "result": ">10 µM"}
{"SMILES": "Cc1cc(F)c(S(=O)(=O)Nc2cc(-c3ccccc3)sc2C(=O)O)cc1C(=O)O", "protein": "NS3 ATPase", "measure": "IC50", "result": ">20 µM"}
{"SMILES": "COc1ccc(-c2cccc(C(=O)O)c2)c(-c2ccc3cc(-c4nc5cc(C(=O)O)ccc5n4C4CCCCC4)ccc3n2)c1", "protein": "NS5B polymerase", "measure": "inhibition", "dose": "33 µM", "result": "100%"}
{"SMILES": "CNC(=O)c1c(-c2ccc(F)cc2)oc2cc(-c3cncnc3)c(OC(C)C)cc12", "protein": "Nonstructural protein 5B", "measure": "IC50", "result": "≤0.5 µM"}
{"SMILES": "CC[C@@H](C=O)NC(=O)[C@@H]1C[C@@H](OCc2noc(-c3c(C)noc3C)n2)CN1C(=O)[C@@H](NC(=O)[C@@H](NC(=O)c1cnccn1)C(C)C)C(C)C", "protein": "NS3 protease", "measure": "Ki", "result": "1–100 µM"}
{"SMILES": "CNC(=O)c1c(-c2ccc(F)cc2)oc2cc(-c3c(C)noc3C)c(OCc3cscn3)cc12", "protein": "Nonstructural protein 5B", "measure": "IC50", "result": "≤0.5 µM"}
{"SMILES": "O=C(O)c1nc(-c2sccc2CCOCc2ccccc2)[nH]c(=O)c1O", "protein": "HCV polymerase", "measure": "IC50", "result": "<25 µM"}
{"SMILES": "NC(=O)CNC(=O)c1ccc(-c2ccc(Cl)cc2)c(-c2ccc3cc(-c4nc5cc(C(=O)O)ccc5n4C4CCCCC4)ccc3n2)c1", "protein": "NS5B polymerase", "measure": "inhibition", "dose": "33 µM", "result": "100%"}
{"SMILES": "Nc1ccccc1-c1nc(C(=O)O)c(O)c(=O)[nH]1", "protein": "HCV polymerase", "measure": "IC50", "result": "<100 µM"}
{"SMILES": "COc1ccc(-c2ccc(Cl)cc2)c(-c2ccc3cc(-c4nc5cc(C(=O)O)ccc5n4C4CC4)ccc3n2)c1", "protein": "NS5B polymerase", "measure": "inhibition", "dose": "33 µM", "result": "100%"}
{"SMILES": "Cc1ccc(C(=O)N(C)c2cc(-c3ccccn3)sc2C(=O)O)cc1", "protein": "NS3 ATPase", "measure": "IC50", "result": "5–20 µM"}
{"SMILES": "CC[C@@H](C=O)NC(=O)[C@@H]1C[C@@H](OCc2ccccc2)CN1C(=O)[C@@H](NC(=O)[C@@H](NC(=O)Nc1ccccc1C(=O)O)C(C)C)C(C)C", "protein": "NS3 protease", "measure": "Ki", "result": "1–100 µM"}
{"SMILES": "CNC(=O)c1c(-c2ccc(F)cc2)oc2cc(N3CCOCC3)c(OC(C)c3ccc(F)cc3)cc12", "protein": "Nonstructural protein 5B", "measure": "IC50", "result": "≤0.5 µM"}
{"SMILES": "O=C(O)c1cnc2c(c1)nc(-c1ccc3nc(-c4ccccc4Br)ccc3c1)n2C1CCCCC1", "protein": "NS5B polymerase", "measure": "inhibition", "dose": "100 µM", "result": "95.91%"}
{"SMILES": "O=C(O)c1cc2nc(-c3ccc(F)cc3)cc(-c3ccc(OCc4ccccc4)cc3)n2n1", "protein": "RNA-dependent RNA polymerase", "measure": "IC50", "result": ">10 µM"}
{"SMILES": "O=C(NCc1ccc2c(c1)OCO2)Nc1ccccc1-c1nc(C(=O)O)c(O)c(=O)[nH]1", "protein": "HCV polymerase", "measure": "IC50", "result": "<100 µM"}
{"SMILES": "CC[C@@H](C=O)NC(=O)[C@@H]1C[C@@H](OC(=O)Nc2ccc(Cl)c(Cl)c2)CN1C(=O)[C@@H](NC(=O)[C@@H](NC(=O)c1cnccn1)C(C)C)C(C)C", "protein": "NS3 protease", "measure": "Ki", "result": "1–100 µM"}
{"SMILES": "O=C(Nc1cscc1-c1nc(C(=O)O)c(O)c(=O)[nH]1)NS(=O)(=O)c1ccccc1Cl", "protein": "HCV polymerase", "measure": "IC50", "result": "<25 µM"}
{"SMILES": "O=C(O)c1ccc2c(c1)nc(-c1ccc3nc(-c4cccc(O)c4)ccc3c1)n2C1CCCCC1", "protein": "NS5B polymerase", "measure": "inhibition", "dose": "33 µM", "result": "96.95%"}
{"SMILES": "O=C(O)c1cc2nc(-c3ccc(Cl)cc3)cc(-c3cccc(OCc4ccccc4)c3)n2n1", "protein": "RNA-dependent RNA polymerase", "measure": "IC50", "result": "1–10 µM"}
{"SMILES": "Cc1ccc(C(=O)N(c2cc(-c3cccc(C(F)(F)F)c3)sc2C(=O)O)C(C)C)cc1", "protein": "NS3 ATPase", "measure": "IC50", "result": "<5 µM"}
{"SMILES": "O=C(O)c1ccc2c(c1)nc(-c1ccc3nc(-c4ccncc4)ccc3c1)n2C1CCCCC1", "protein": "NS5B polymerase", "measure": "inhibition", "dose": "33 µM", "result": "87.01%"}
{"SMILES": "Cc1cc(C)n2nc(C(=O)O)cc2n1", "protein": "RNA-dependent RNA polymerase", "measure": "IC50", "result": ">10 µM"}
{"SMILES": "COc1ccc(-c2ccc(Cl)cc2)c(-c2ccc3cc(-c4nc5cc(C(=O)O)ccc5n4CCC(C)C)ccc3n2)c1", "protein": "NS5B polymerase", "measure": "inhibition", "dose": "33 µM", "result": "99.64%"}
{"SMILES": "CC[C@@H](C=O)NC(=O)[C@@H]1C[C@@H](OC(=O)Nc2cccc(Oc3ccccc3)c2)CN1C(=O)[C@@H](NC(=O)[C@@H](NC(=O)c1cnccn1)C(C)C)C(C)C", "protein": "NS3 protease", "measure": "Ki", "result": "1–100 µM"}
{"SMILES": "CC(=O)c1ccc(S(=O)(=O)Nc2cc(-c3ccccc3)sc2C(=O)O)cc1", "protein": "NS3 ATPase", "measure": "IC50", "result": "5–20 µM"}
{"SMILES": "O=C(Nc1ccsc1-c1nc(C(=O)O)c(O)c(=O)[nH]1)NC(COCc1ccccc1)c1ccccc1", "protein": "HCV polymerase", "measure": "IC50", "result": "<25 µM"}
{"SMILES": "O=C(O)c1cc2nc(-c3cccs3)c(C3CCCCC3)c(=O)n2[nH]1", "protein": "RNA-dependent RNA polymerase", "measure": "IC50", "result": "1–10 µM"}
{"SMILES": "O=C(Nc1ccccc1-c1nc(C(=O)O)c(O)c(=O)[nH]1)NC1CCc2ccccc21", "protein": "HCV polymerase", "measure": "IC50", "result": "<100 µM"}
{"SMILES": "COc1ccc(-c2cc(-c3ccc(Oc4ccccc4)cc3)nc3cc(C(=O)O)nn23)cc1Cl", "protein": "RNA-dependent RNA polymerase", "measure": "IC50", "result": "1–10 µM"}

3 of the rows above, restated:

SMILES,protein,measure,dose,result
CC[C@@H](C=O)NC(=O)[C@@H]1C[C@@H](OCc2noc(-c3c(C)noc3C)n2)CN1C(=O)[C@@H](NC(=O)[C@@H](NC(=O)c1cnccn1)C(C)C)C(C)C,NS3 protease,Ki,-,1–100 µM
O=C(O)c1cc2nc(-c3cccs3)c(C3CCCCC3)c(=O)n2[nH]1,RNA-dependent RNA polymerase,IC50,-,1–10 µM
CC[C@@H](C=O)NC(=O)[C@@H]1C[C@@H](OC(=O)Nc2cccc(Oc3ccccc3)c2)CN1C(=O)[C@@H](NC(=O)[C@@H](NC(=O)c1cnccn1)C(C)C)C(C)C,NS3 protease,Ki,-,1–100 µM

Inhibition is in % at the dose shown (toxicity tests: loss of growth or viability). Conditions beyond the fields shown may differ between rows. Two numbers with a dash give a range or band. Blank or dashed fields: not listed here.